Experiments:
MHC II = MHC II assay by high-throughput flow cytometry (compound screening); assay type: cell-based
p-Akt/p-mTOR = p-Akt/p-mTOR (compound screening); assay type: cell-based
CMTM4 = CMTM4 (Mus musculus, UniProt Q8CJ61); assay: CMTM4 level (compound screening); assay type: cell-based
[1] = tested on: NF-kB promoter activity in 4T1 cells; assay: NF-kB promoter activity, CMTM4-expressing NF-kB/SEAP reporter stable 4T1 cells; assay type: cell-based, murine; conditions: 4T1 reporter cells
[2] = tested on: NF-kB promoter activity in LLC cells; assay: NF-kB promoter activity, CMTM4-expressing NF-kB/SEAP reporter stable LLC cells; assay type: cell-based, murine
G-CSF = assay: Inhibition of EGF-mediated G-CSF secretion from tumor cells; assay type: cell-based
IL-6 = IL-6 production (compound screening); assay type: cell-based
glycolysis = assay: Test glycolysis (compound screening); assay type: cell-based

Amino acid sequences for entries named in this document (tags omitted). A change or cut given only in a name is not applied to a line headed by its entry.
UniProt Q8CJ61: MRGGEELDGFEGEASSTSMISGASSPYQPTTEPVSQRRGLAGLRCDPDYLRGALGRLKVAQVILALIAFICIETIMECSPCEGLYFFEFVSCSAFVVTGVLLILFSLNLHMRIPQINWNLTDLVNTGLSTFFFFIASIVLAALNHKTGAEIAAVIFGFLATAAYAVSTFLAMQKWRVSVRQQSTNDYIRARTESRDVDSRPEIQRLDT

Row | Substance | MHC II (%) (MHC II) | p-Akt/p-mTOR (p-Akt/p-mTOR) | CMTM4 (CMTM4) | NF-kB (%)-4T1 [1] | NF-kB (%)-LLC [2] | G-CSF (%) (G-CSF) | IL-6 (%) (IL-6) | Glycolysis (glycolysis)
1 | Verrucarin A 9,10-epoxide | 280.2% | Decrease | No difference | 41.32% | 36.11% | −0.01129% | −10.1997% | Inhibit
2 | 5-Methoxysterigmatocysin |  | Decrease | No difference | 38.64% | 35.23% |  | −11.581% | Inhibit

Source: patent US20250313900A1, “COMPOSITIONS AND THERAPEUTIC AGENTS FOR MODULATING INFLAMMATORY RESPONSES ON BOTH TUMOR AND IMMUNE CELLS” (THE METHODIST HOSPITAL, priority 2022, published 2025)
